Anti-infective test results gathered from many reports (values: NIAID ChemDB through PubChem).

Shared fields: tests in culture; species: Hepatitis B virus

ECn is the concentration giving n% inhibition of infection, replication or growth. a–b is a range or a potency band. Blank or dashed fields: not listed here. Rows are shuffled and stem from different studies.

smiles	cell line	method	mutations	measure	result
C#CC1(NC(=O)C(=O)c2c(C)c(C(=O)Nc3ccc(F)c(F)c3)n(C)c2C)CCCCC1	HepG2.2.15	PCR	-	EC50	0.001–0.0099 µM
C[C@@H]1Cc2nn3c(c2CN1C(=O)c1ccc(Cl)c(C#N)c1)C(=O)N([C@@H](C)c1ccc(C(F)(F)F)cc1)CC3	HepG2.117	PCR	-	EC50	0.31 µM
CS(=O)(=O)CCNCc1ccc(-c2ccc3ncnc(Nc4ccc(N5CCOCC5)cc4)c3c2)o1	HUH 9B	replicon	-	EC50	<1 µM
Cc1cc(NC(=O)c2c3c(cn2C)S(=O)(=O)NC2CN(C(=O)C(=O)N[C@H](C)C(F)(F)F)CC2CO3)ccc1F	HepAD38	PCR	-	EC50	<0.5 µM
C#CC(C)(C)NC(=O)C(=O)c1c(C)c(C(=O)Nc2ccc(F)c(C(F)(F)F)c2)n(C)c1C	HepG2.2.15	PCR	-	EC50	<0.001 µM
COc1cc2c(cc1Cl)-c1c(cc(C(=O)O)c(=O)n1C1CC1)CS2	Primary human hepatocytes	antigen / visual reading / absorbance	-	EC50	0.1–0.5 µM
C#CCNC(=O)C(=O)c1c(C)c(C(=O)Nc2ccc(F)c(C#N)c2)n(C)c1Cl	HepG2.2.15	PCR	-	EC50	0.001–0.0099 µM
CN(C)C(=O)NCC(=O)Nc1ccc(Cl)nc1Cl	HepG2.2.15	PCR	-	EC90	>100 µM
Cc1c(C(=O)C(=O)NC(C)(C)c2cccnc2)c(C)n(C)c1C(=O)Nc1ccc(F)c(C(F)(F)F)c1	HepG2.2.15	PCR	-	EC50	<0.001 µM
CN(c1ccc(N2CCOCC2)cc1)c1ncnc2ccc(I)cc12	HUH 9B	replicon	-	EC50	<1 µM
Cc1cc(C(=O)N2CCn3c(c(C(=O)NCc4ccccc4)n(-c4ccc(OC(C)C)cc4)c3=O)C2)ccc1Br	HepG2.117	PCR	-	EC50	>5 µM
COCCCOc1cc2c(cc1C(=O)N(C)C)-c1c(cc(C(=O)O)c(=O)n1C1CC1)CS2(=O)=O	Primary human hepatocytes	antigen / visual reading / absorbance	-	EC50	>0.5 µM
O=C(NCc1cccc2cccnc12)c1c2n(c(=O)n1-c1ccc(OCC(F)(F)F)cc1)CCN(C(=O)c1ccc(Br)c(Cl)c1)C2	HepG2.117	PCR	-	EC50	0.1–0.5 µM
COCCCOc1cc2c(cc1F)-c1c(cc(C(=O)O)c(=O)n1C1CC1)C(C(C)C)S2(=O)=O	Primary human hepatocytes	antigen	-	EC50	>0.5 µM
C[C@@H]1Cc2nn3c(c2CN1C(=O)c1ccc(Cl)c(C#N)c1)C(=O)N([C@H](C)c1ccnc(C(F)(F)F)c1)CC3	HepG2.117	PCR	-	EC50	0.7 µM
Cc1cc(NC(=O)c2c3c(cn2C)S(=O)(=O)N[C@H]2CN(C(=O)C(=O)N[C@H](C)C(F)(F)F)C[C@H]2CO3)ccc1F	HepG2	PCR	F110I	EC50	0.00112 µM
N#CCOc1ccc(CNC(=O)c2c3n(c(=O)n2-c2ccc(OC4CC4)cc2)CCN(C(=O)c2ccc(Br)c(Cl)c2)C3)c(F)c1	HepG2.117	PCR	-	EC50	0.1–0.5 µM
Cn1cc2c(c1C(=O)Nc1ccc(Cl)c(F)c1)OC[C@@H]1CN(C(=O)C(=O)NC3(C)COC3)C[C@@H]1NS2(=O)=O	HepG2	PCR	-	EC50	<0.5 µM
C#CC1(NC(=O)C(=O)c2c(C)c(C(=O)Nc3ccc(F)c(C#N)c3)n(C)c2Cl)CC1(F)F	HepG2.2.15	PCR	-	EC50	<0.001 µM
COc1ccc(-n2c(C(=O)NCc3ccccc3)c3n(c2=O)CCN(C(=O)c2ccc(Cl)c(Cl)c2)C3)c(C#N)c1	HepG2.117	PCR	-	EC50	>5 µM
CC1c2cc(C(=O)O)c(=O)n(C3CC3)c2-c2cc(Cl)c(O)cc2S1(=O)=O	Primary human hepatocytes	antigen / visual reading / absorbance	-	EC50	>0.5 µM
N#Cc1ccc(CNC(=O)c2c3n(c(=O)n2-c2ccc(OC4CC4)cc2)CCN(C(=O)c2ccc(Br)c(Cl)c2)C3)c(F)c1	HepG2.117	PCR	-	EC50	0.5–5 µM
O=C1NNC(=O)c2c(ncn2[C@@H]2O[C@H](CO)[C@@H](O)[C@H]2O)N1	2.2.15	-	-	EC50	>30 µM
COc1ccc(-n2c(C(=O)NCc3ccccc3OC)c3n(c2=O)CCN(C(=O)c2ccc(Br)c(Cl)c2)C3)cc1	HepG2.117	PCR	-	EC50	0.1–0.5 µM
COCCCOc1cc2c(cc1Cl)-c1c(cc(C(=O)O)c(=O)n1C1CCC1)CS2(=O)=O	Primary human hepatocytes	antigen / visual reading / absorbance	-	EC50	0.05–0.1 µM
O=C(CNC(=O)c1cccc(F)c1)Nc1ccc(Cl)nc1Cl	HepG2.2.15	PCR	-	EC90	>100 µM
C[C@@H]1Cc2nn3c(c2CN1C(=O)c1ccc(Cl)c(C#N)c1Cl)C(=O)N([C@H](C)c1ccc(OC(F)F)cc1)CC3	HepG2.117	PCR	-	EC50	0.073 µM
Cc1c(C(=O)C(=O)NC2(C#CCO)COC2)c(C)n(C)c1C(=O)Nc1ccc(F)c(C#N)c1	HepG2.2.15	PCR	-	EC50	0.01–0.099 µM
C[C@@H]1Cc2nn3c(c2CN1C(=O)c1ccc(Cl)c(C#N)c1)C(=O)N([C@@H](C)c1cccc(OC(F)(F)F)c1)CC3	HepG2.117	PCR	-	EC50	0.175 µM
COc1ccc([C@@H](C)NC(=O)c2c3n(c(=O)n2-c2ccc(-n4cccn4)cc2)CCN(C(=O)c2ccc(Br)c(Cl)c2)C3)cc1	HepG2.117	PCR	-	EC50	0.1–0.5 µM
Cn1cc2c(c1C(=O)Nc1cc(F)c(F)c(F)c1)OC[C@@H]1CN(C(=O)C(=O)NC3(C)COC3)C[C@@H]1NS2(=O)=O	HepAD38	PCR	-	EC50	<0.5 µM
COc1ccc(-n2c(C(=O)N[C@H](C)c3ccc(Br)cc3)c3n(c2=O)CCN(C(=O)c2ccc(Br)c(Cl)c2)C3)cc1	HepG2.117	PCR	-	EC50	0.1–0.5 µM
Cc1cc(NC(=O)c2c3c(cn2C)S(=O)(=O)NC2CCN(C(=O)C(=O)NCC(F)(F)F)CC2CO3)ccc1F	HepAD38	PCR	-	EC50	<0.5 µM
c1nc(Nc2ccc(N3CCOCC3)cc2)c2cc(-c3ccc(CN4CCOCC4)o3)ccc2n1	HUH 9B	replicon	-	EC50	<1 µM
Cc1c(C(=O)N2Cc3c(nn4c3C(=O)N([C@H](C)c3ccc(OC(F)F)cc3)CC4)C[C@H]2C)ccc(Cl)c1C#N	HepG2.117	PCR	-	EC50	0.07 µM
c1ccc(COc2ccccc2-c2ccc3ncnc(Nc4ccc(N5CCOCC5)cc4)c3c2)cc1	HUH 9B	replicon	-	EC50	1–5 µM
C[C@@H]1Cc2nn3c(c2CN1C(=O)c1ccc(Cl)c(C#N)c1)C(=O)N([C@H](C)c1ccc(C(F)(F)F)cc1)CC3	HepG2.117	PCR	-	EC50	0.037 µM
CC(C)CCN(c1ccc(N2CCOCC2)cc1)c1ncnc2ccc(-c3cccs3)cc12	HUH 9B	replicon	-	EC50	1–5 µM
C[C@@H]1Cc2nn3c(c2CN1C(=O)c1ccc(Cl)c(C#N)c1)C(=O)N(Cc1ccc2n[nH]nc2c1)CC3	HepG2.117	PCR	-	EC50	0.56 µM
CC1c2cc(C(=O)O)c(=O)n(C3CC3)c2-c2cc(Cl)c(-c3cnc(N4CCCC4)nc3)cc2S1(=O)=O	Primary human hepatocytes	antigen / visual reading / absorbance	-	EC50	>0.5 µM
Ic1ccc2ncnc(Nc3ccc(N4CCOCC4)cc3)c2c1	HUH 9B	replicon	-	EC50	<1 µM
CC1c2cc(C(=O)O)c(=O)n(C3CC3)c2-c2cc(Cl)c(OC3CCCC3)cc2S1(=O)=O	Primary human hepatocytes	antigen / visual reading / absorbance	-	EC50	0.05–0.1 µM
C[C@@H]1Cc2nn3c(c2CN1C(=O)c1ccc(Cl)c(C#N)c1)C(=O)N(Cc1ccc2ncoc2c1)CC3	HepG2.117	PCR	-	EC50	0.056 µM
CN(CC(=O)Nc1ccc(Cl)cc1Cl)C(=O)c1ccccn1	HepG2.2.15	PCR	-	EC90	>100 µM
Cc1cc(NC(=O)c2c3c(cn2C)S(=O)(=O)N[C@H]2CN(C(=O)C(=O)N[C@@H](C)C(F)(F)F)C[C@H]2CO3)ccc1F	HepAD38	PCR	-	EC50	<0.5 µM
CN(CC(=O)Nc1ccc(Cl)cc1Cl)C(=O)c1ccc(F)cc1	HepG2.2.15	PCR	-	EC50	32 µM
Cc1ccccc1-c1ccc2ncnc(Nc3ccc(N4CCOCC4)cc3)c2c1	HUH 9B	replicon	-	EC50	1–5 µM
Cn1cc(-c2cc3c(cc2Cl)-c2c(cc(C(=O)O)c(=O)n2C2CC2)CS3(=O)=O)cn1	Primary human hepatocytes	antigen / visual reading / absorbance	-	EC50	>0.1 µM